## Screening data, single-dose tests

From ChEMBL document CHEMBL3988442, “University of Dundee, Small-Polar-MMV Screening Library” (2021).

Mtb glucose medium: 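Growth of Mycobacterium tuberculosis over 3 days (7H9 medium with glucose and tyloxapol); the read-out is not stated. Compounds at 500 µM. The record gives no direction; compounds that gave an IC50 in retests scored well above the rest, so higher reads as more growth inhibition. About 18,000 compounds were tested under these conditions; 7.9% (about 1,400) showed 50% or more at least once.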
Mtb cholesterol medium: 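Phenotypic screen: M. tuberculosis growth, cholesterol and DPPC medium, 4 days; the read-out is not stated. Concentration: 500 µM. Higher reads as more growth inhibition (inferred: compounds with an IC50 in retests scored well above the rest). Size under these conditions: about 18,000 compounds, about 900 of them at 50% or above in at least one test.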

Results are given as percent effect.
The record does not define 0% and 100%; most values in the screen are far below 50% and negative numbers occur (in some assays of this library far below -100).
This is part of a subset picked to be rich in strong results.
A dash means the value is not listed here; it may have been measured.

SMILES | Mtb glucose medium | Mtb cholesterol medium
CCOc1ccccc1C(=O)N1CCC(O)CC1 | - | 3.837%
CC(C)Oc1c(Cl)cccc1NCC(=O)N(C)C | -22.18% | -
COc1ccc(NC(=O)N2CCN(C)CC2)cn1 | -2.539% | -
N#Cc1cccc(S(=O)(=O)N2CC(O)(C3CC3)C2)c1 | - | 9.015%
CNC(=O)NCCNc1ccccc1 | - | 9.649%
O=C1OC2(CCNCC2)CN1Cc1ccc(Cl)s1 | 34.53% | -
CC1CN(c2cc(C(F)(F)F)ccn2)CCS1(=O)=O (stereo unspecified) | -0.8382% | -
CN(C)C(=O)C1CCN(Cc2ccc(F)cc2)CC1 | 1.279% | -
Cc1ccnc(CCO)n1 | - | 5.075%
Cc1cc(=O)n(C)cc1NC(=O)c1ccncc1Cl | -4.199% | -
CN(C)S(=O)(=O)c1cccc(CN2CCCC(O)C2)c1 (stereo unspecified) | 8.776% | -
Cc1ccc(C(=O)NCCSc2nncn2C)s1 | - | -4.461%
CN1CCN(CCOc2ccc(C#N)cc2)CC1 | 22.01% | 2.887%
NCc1cnn(-c2ccc(Cl)cc2)c1 | 38.41% | 30.67%
CCc1cc(C(=O)NCC(C)C)no1 | 6.848% | -
Nc1ccc(C(=O)N2CCC(n3cnnc3)CC2)cn1 | 13.76% | -
CNCc1csc(C(C)C)n1 | -21.21% | -13.8%
O=C(CC1C=CCC1)N1CCN(Cc2ccco2)CC1 (stereo unspecified) | 71.63% | 68.7%
CCC1CCCCN1C(=O)CN1CCCC[C@@H]1CO (stereo partly specified) | - | -4.782%
COCCCNC(=O)NCCC(=O)OC(C)(C)C | 2.4% | -
COc1ccc(C(=O)N2CCC(N)CC2)cc1OC | 24.19% | -
NC1CCCc2nc(N3CCC(CO)CC3)ncc21 (stereo unspecified) | -208.5% | -
CN1CCOC(C(=O)Nc2ncc(Cl)s2)C1 (stereo unspecified) | 54.09% | -
Cc1c(C(=O)NC(C)C(N)=O)sc2cccc(F)c12 (stereo unspecified) | - | -3%
CC(=O)OCc1cc(=O)n2ccsc2n1 | - | 0.2113%
CCOC(CO)C1CC1 (stereo unspecified) | -11.79% | -
O=C(CSc1nc[nH]n1)NCCCc1ccccc1 | 26.86% | -
NC(=O)NC(=O)COC(=O)c1ccccc1Br | 9.338% | -
CCCC(C)(C)NC(=O)c1ccc(S(C)(=O)=O)cc1 | - | 27.83%
NCc1csc(-c2ccco2)n1 | - | -19.99%
CNC(=O)C1CN(C(=O)c2ccc(Cl)c(C)c2)CCO1 (stereo unspecified) | 10.86% | -
COCCN(Cc1ccncc1)C(=O)CC1CCNC1 (stereo unspecified) | -7.094% | -
CC(=O)c1cc(CN2CCOCC(CO)C2)n(C)c1 (stereo unspecified) | - | 3.986%
CN(CCO)c1ccc(N)nc1 | -99.92% | -
N[C@@H]1C[C@H]1c1cccc(F)c1 | 33.72% | -
CCCOc1nsnc1N1CCOCC1 | -7.841% | -14.63%
Cc1ccnn1CC(=O)NCCN | 0.8587% | -
CN(C)CC(=O)Nc1ccc2c(c1)C(O)CC2(C)C (stereo unspecified) | -3.328% | -
CC1CN(c2nc(-c3ccccc3)ns2)CCS1(=O)=O (stereo unspecified) | -3.019% | -
O=C(Cc1ccccc1)OCCN1CCOCC1 | 7.931% | -
COCc1nc2n(n1)CCCC2N (stereo unspecified) | -3.41% | -
O=C(c1c(F)cccc1F)N1CCNCC1 | - | -5.901%
CN(Cc1ccco1)C(=O)c1cccc(C#N)c1 | 49.76% | 53.19%
CN(C)CC(=O)Nc1cc(Cl)cc2c1OCC2 | - | -3.074%
c1nnc(C2CC2)n1C1CCNCC1 | 1.87% | -
COc1ncc(C(=O)NCc2ccc(F)cc2)cn1 | 26.94% | -
Cc1cc(=O)n(CCN(C)CC2(C)COC2)c(=O)[nH]1 | - | -4.368%
O=C(Cn1cnnn1)Nc1cccc(-n2cccc2)c1 | -11.4% | 7.999%
CNCCc1ccccc1OC | 85.85% | 91.24%
O=C(CN1CCCC1c1ccsc1)N1CCOCC1 (stereo unspecified) | 29.32% | -
CCCN(C(=O)c1cscn1)C1CCNCC1 | 7.021% | -
OC1CCCN(Cc2cccc(F)c2F)C1 (stereo unspecified) | 27.37% | -
Cc1ccccc1C(C)NC(=O)c1ccc(=O)n(C)n1 (stereo unspecified) | 21.15% | -
Cc1ccc(OC(C)CN)cc1 (stereo unspecified) | 86.47% | 94.8%
Cc1nn(CCO)c(NCc2ccc(F)cc2)c1C | 33.81% | -
CN1CCN(CC2CC23CCNCC3)CC1 (stereo unspecified) | -9.359% | -
CCOC(=O)c1nnn(-c2ccc(F)cc2)c1C | 20.81% | -
COc1cc(NCc2cc[nH]n2)cc(OC)c1 | - | 4.196%
CC(NC(=O)c1ccn(C2CCCC2)n1)c1ncon1 (stereo unspecified) | 1.906% | -
Cc1n[nH]cc1CNCCNc1ncccn1 | -7.285% | -
CCn1ncc(N)c1C(N)=O | 13.31% | -
Cn1cc(NC(=O)C(C)(C)C)cc(Br)c1=O | - | -9.415%
Cc1noc(C)c1C(=O)N1CCCN(C)CC1 | 5.833% | -
COCCOCCn1nc(C)c(C#N)c1N | 8.067% | 75.54%
NCc1ccc2c(c1)CNC2 | -13.11% | -
c1cnc2nc(N3CCNCC3)oc2c1 | -5.318% | -
Cc1n[nH]cc1CNc1ccc(F)cc1 | - | 14.88%

Some entries from above, unchanged:

With Cc1cc(=O)n(C)cc1NC(=O)c1ccncc1Cl the screen gave Mtb glucose medium: -4.199%.
With CNCc1csc(C(C)C)n1 the screen gave Mtb glucose medium: -21.21%; Mtb cholesterol medium: -13.8%.
With Cc1n[nH]cc1CNc1ccc(F)cc1 the screen gave Mtb cholesterol medium: 14.88%.
With CNCCc1ccccc1OC the screen gave Mtb glucose medium: 85.85%; Mtb cholesterol medium: 91.24%.
With COc1ccc(NC(=O)N2CCN(C)CC2)cn1 the screen gave Mtb glucose medium: -2.539%.
With NCc1csc(-c2ccco2)n1 the screen gave Mtb cholesterol medium: -19.99%.
With CCC1CCCCN1C(=O)CN1CCCC[C@@H]1CO (stereo partly specified) the screen gave Mtb cholesterol medium: -4.782%.